Results of unrelated studies side by side (data: NIAID ChemDB).

Shared fields: growth or infection tests; species: Herpes simplex virus 1; measure: inhibition

Lines come from different laboratories, so protocols vary.

SMILES	strain	cell line	read by	dose	value
O=c1[nH]c(=O)n([C@@H]2C[C@H](O)[C@@H](CO)O2)cc1CCBr	-	HEP-2	cytopathic effect	3 µg/mL	≥25%
Clc1cccc2nc3c(cnc4c3cnn4-c3ccccc3)c(Cl)c12	-	-	virus yield	50 µM	80%
Cc1ccccc1Cn1cnc(=N)c2[nH]cnc21	-	BSC-1	plaque count	12 µg/mL	0%
C=Cc1cn([C@H]2C[C@H](O)[C@@H](CO)O2)c(=O)[nH]c1=O	KOS	HeLa	plaque count	10 µM	>99%
Nc1nc2c(ncn2COCCO)c(=O)[nH]1	7401H	VERO	virus yield	0.3 µg/mL	97.91%
N=c1ncn(CC2CCCCC2)c2nc[nH]c12	-	BSC-1	plaque count	50 µg/mL	0%
O=c1ccn([C@@H]2O[C@H](CO)[C@@H](O)[C@@H]2F)c(=O)[nH]1	F	VERO	virus yield	10 µM	99.2%
CC(=O)N[C@@H](CC(C)C)C(=O)N[C@@H](CC(C)C)C(=O)N[C@H](C=O)CCCN=C(N)N	Fukuda	CV-1	plaque count	40 µM	56%
Nc1ccn([C@H]2O[C@@H](CO)[C@H](O)[C@H]2F)c(=O)n1	F	VERO	virus yield	0.1 µM	10%
O=[N+]([O-])c1ccccc1S(=O)(=O)n1c(CCc2ccccn2)nc2ccccc21	-	-	plaque count	5 µg/mL	53%
C/C=C/c1cn([C@H]2C[C@H](O)[C@@H](CO)O2)c(=O)[nH]c1=O	KOS	HELA BU	plaque count	10 µM	>99%
CN1C(=O)NC(=O)N([C@H]2C[C@H](O)[C@@H](CO)O2)C1(C)C	42D	BHK-21	plaque count	50 µM	99%
O=C(NNCc1cccc(O)c1O)c1ccccc1O	KOS	HFF	PCR	0.65 µM	90%
O=S(=O)(c1ccc(OCc2ccc(Br)cc2)cc1)c1ccc(OCc2ccc(Br)cc2)cc1	-	VERO	plaque count	30 µM	>50%
COc1cccc2c1C(=O)c1c(O)c3c(c(O)c1C2=O)C[C@@](O)(C(=O)CO)C[C@@H]3O[C@H]1C[C@H](N)[C@H](O)[C@H](C)O1	-	VERO	virus yield	1 µM	11%
COc1cccc2nc3c(cnc4c3cnn4-c3ccccc3)c(Cl)c12	-	-	virus yield	50 µM	50%
O=c1[nH]c(=O)n([C@H]2C[C@H](O)[C@@H](CI)O2)cc1CCI	-	HEP-2	cytopathic effect	30 µg/mL	≥25%
C#C[C@H]1O[C@@H](n2cc(C)c(=O)[nH]c2=O)C[C@@H]1O	KOS	HELA BU	plaque count	2.5 µM	3%
N=c1ncn(Cc2ccco2)c2nc[nH]c12	-	BSC-1	plaque count	25 µg/mL	0%
O=c1[nH]c(=O)n([C@H]2C[C@H](O)[C@@H](CO)O2)cc1/C=C/C(F)(F)F	KOS	HELA BU	plaque count	10 µM	>99%
CC1/C(=N/NC(N)N)c2ccccc2/C1=N/NC(N)N	MP	HEP-2	plaque count	30 µM	inactive
Nc1nc2c(ncn2COC(CO)CO)c(=O)[nH]1	KOS mutant PFA-R5	WI-38	plaque count	1.5 µM	90%
O=c1[nH]c(=O)n([C@H]2C[C@H](O)[C@@H](CO)O2)cc1/C=C/Br	KOS	PRK	cytopathic effect	0.007 µg/mL	≥25%
CC(C)C[C@H](NC(=O)[C@@H]1O[C@H]1C(=O)O)C(=O)NCCCCN=C(N)N	Fukuda	CV-1	plaque count	10 µM	0%
S=C(NCCc1ccccc1)Nc1ccc(Oc2ccc(NC(=S)NCCc3ccccc3)cc2)cc1	-	VERO	plaque count	5 µM	<50%
O=c1[nH]c(=O)n([C@H]2C[C@H](O)[C@@H](CO)O2)cc1CCCl	-	HEP-2	cytopathic effect	0.03 µg/mL	≥25%
C/C=C/c1cn([C@H]2C[C@H](O)[C@@H](CO)O2)c(=O)[nH]c1=O	C42	VERO	plaque count	10 µM	93%
O=c1[nH]c(=O)n([C@H]2C[C@H](O)[C@@H](CO)O2)cc1I	KOS	PRK	cytopathic effect	0.2 µg/mL	≥25%
Cc1nnc2nc3c(nn12)c1ccccc1n3C	-	BSC-1	plaque count	60 µg/mL	99%
O=c1[nH]c(=O)n([C@H]2C[C@H](O)[C@@H](CO)O2)cc1CCO	-	HEP-2	cytopathic effect	100 µg/mL	≥25%
O=C(Nc1ccc(Oc2ccc(NC(=O)c3ccco3)cc2)cc1)c1ccco1	-	VERO	plaque count	5 µM	<50%
CCCc1cn([C@H]2C[C@H](O)[C@@H](CO)O2)c(=O)[nH]c1=O	KOS	HeLa	plaque count	25 µM	>99%
NC(N)N/N=C1C=C/C(=N/NC(N)N)C\1	MP	HEP-2	plaque count	30 µM	inactive
CSc1cnc(=O)n([C@H]2C[C@H](O)[C@@H](CO)O2)c1	KOS	HeLa	plaque count	100 µM	57%
O=c1[nH]c(=O)n([C@@H]2O[C@H](CO)[C@@H](O)[C@@H]2F)cc1I	-	HEP-2	cytopathic effect	0.01 µg/mL	≥25%
Nc1nc(=S)c2[nH]c(-c3cscn3)nc2[nH]1	-	VERO	plaque count	10 µg/mL	0%
Nc1ncnc2c1ncn2[C@@H]1O[C@H](CO)[C@@H](O)[C@@H]1O	VL8737	HL	virus yield	5 µg/mL	97%
Cc1ccnc2nc3c(cnc4c3cnn4-c3ccccc3)c(Cl)c12	-	-	virus yield	50 µM	65%
Cc1cn([C@@H]2O[C@H](CO)[C@@H](O)[C@@H]2F)c(=O)[nH]c1=O	F	VERO	virus yield	1 µM	79%
COc1ccc(NC(=S)Nc2ccc(Cl)cc2)cc1NC(=S)Nc1ccc(Cl)cc1	-	VERO	plaque count	30 µM	<50%
Cc1cccc(Cn2cnc(=N)c3[nH]cnc32)c1	-	BSC-1	plaque count	25 µg/mL	0%
Nc1nc2c(ncn2COC(CO)CO)c(=O)[nH]1	-	HEP-2	cytopathic effect	0.01 µg/mL	≥25%
NC(N)N/N=C1/c2ccccc2/C(=N\NC(N)N)C1[N+](=O)[O-]	MP	HEP-2	plaque count	30 µM	inactive
O=c1[nH]c(=O)n([C@@H]2O[C@H](CO)[C@@H](O)[C@@H]2F)cc1I	F	VERO	virus yield	0.1 µM	86%
O=[N+]([O-])c1ccc(COc2ccc(S(=O)(=O)c3ccc(OCc4ccc([N+](=O)[O-])cc4)cc3)cc2)cc1	-	VERO	plaque count	5 µM	0%
C/C=C/c1cn([C@@H]2O[C@H](CO)[C@@H](O)[C@@H]2O)c(=O)[nH]c1=O	TK-	VERO	plaque count	250 µM	8%

A second listing of 2 rows from above:

SMILES | strain | cell line | read by | dose | value
CCCc1cn([C@H]2C[C@H](O)[C@@H](CO)O2)c(=O)[nH]c1=O | KOS | HeLa | plaque count | 25 µM | >99%
O=c1[nH]c(=O)n([C@H]2C[C@H](O)[C@@H](CO)O2)cc1CCO | - | HEP-2 | cytopathic effect | 100 µg/mL | ≥25%

An empty or dashed field is not shown. Inhibition is in % at the dose shown (toxicity tests: loss of growth or viability). "inactive" is the filed call at that dose; no cut-off is given.